A mixed list of measured activities; the numbers were collected in NIAID ChemDB.

All rows: whole-cell or culture tests; agent: Enterococcus faecium

Lines come from different laboratories, so protocols vary. MIC50, MIC90 and the like: level of inhibition, or share of isolates inhibited.

SMILES | endpoint | strain or isolate | result
CC(=O)NC[C@H]1CN(c2ccc3c(c2)OCc2nccn2-3)C(=O)O1 | MIC | 27266 | 1 µg/mL
O=C(Nc1ccc(C(F)(F)F)cc1)NN(CC(O)CN1CCOCC1)C(=O)Nc1ccc(C(F)(F)F)cc1 | MIC | EF12 (vancomycin-resistant) | >300 µM
Cc1c(NC2CC2)c(F)cc2c(=O)c(C(=O)O)cn(-c3cc(N)c(F)cc3F)c12 | MIC | W1418 | 16 µg/mL
CC(=O)NC[C@H]1CN(c2ccc(C(=O)Nc3nccs3)c(F)c2)C(=O)O1 | MIC | UC12712 (vancomycin-resistant) | 4 µg/mL
O=C(NNC(=O)Nc1ccccc1C(F)(F)F)Nc1cc(C(F)(F)F)cc(C(F)(F)F)c1 | MIC | EF12 (vancomycin-resistant) | >422 µM
CO/N=C/c1ccc(C(=O)Nc2ccc(N3C[C@H](CNC(C)=O)OC3=O)cc2F)o1 | MIC | UC12712 (vancomycin-resistant) | 16 µg/mL
O=C(NNC(=O)Nc1ccc(Cl)c(Cl)c1)Nc1ccc(Cl)c(Cl)c1 | MIC | EF12 (vancomycin-resistant) | 9.8 µM
CC(=O)NC[C@H]1CN(c2ccc(NC(=O)c3ccc(C=O)o3)c(F)c2)C(=O)O1 | MIC | UC12712 (vancomycin-resistant) | 16 µg/mL
CC(=O)NC[C@H]1CN(c2ccc(C(=O)Nc3ccncc3)c(F)c2)C(=O)O1 | MIC | UC12712 (vancomycin-resistant) | 8 µg/mL
CC(=O)NC[C@H]1CN(c2ccc(N(C)C(=O)c3ccc([N+](=O)[O-])o3)c(F)c2)C(=O)O1 | MIC | UC12712 (vancomycin-resistant) | 8 µg/mL
Cc1c(NCCCO)c(F)cc2c(=O)c(C(=O)O)cn(-c3cc(N)c(F)cc3F)c12 | MIC | W1418 | 64 µg/mL
CC(=O)NC[C@H]1CN(c2ccc(NC(=O)c3ccc(F)o3)c(F)c2)C(=O)O1 | MIC | UC12712 (vancomycin-resistant) | 16 µg/mL
CN(C)c1cc(NC(=O)CNC(C)(C)C)c(O)c2c1C[C@H]1C[C@H]3[C@H](N(C)C)C(=O)C(C(N)=O)=C(O)[C@@]3(O)C(=O)C1=C2O | MIC90 | 20 strains (vancomycin-susceptible) | 0.12 µg/mL
O=C(NNC(=O)NC1CCCCC1)Nc1cc(C(F)(F)F)cc(C(F)(F)F)c1 | MIC | EF12 (vancomycin-resistant) | 200 µM
CC(=O)NC[C@H]1CN(c2ccc(C(=O)N3CCOCC3)c(F)c2)C(=O)O1 | MIC | UC12712 (vancomycin-resistant) | >64 µg/mL
CC(=O)NC[C@H]1CN(c2ccc(NC(=O)c3ccc(/C=N/O)o3)c(F)c2)C(=O)O1 | MIC | UC12712 (vancomycin-resistant) | 8 µg/mL
CSc1ccc(NC(=O)c2ccc(N3C[C@H](CNC(C)=O)OC3=O)cc2F)cn1 | MIC | UC12712 (vancomycin-resistant) | 4 µg/mL
CC(=O)NC[C@H]1CN(c2ccc(NC(=O)c3ccc(Br)o3)c(F)c2)C(=O)O1 | MIC | UC12712 (vancomycin-resistant) | 8 µg/mL
Cc1c(NCCO)c(F)cc2c(=O)c(C(=O)O)cn(-c3cc(N)c(F)cc3F)c12 | MIC | ATCC51519 | 8 µg/mL
CSCC(=O)NC[C@H]1CN(c2ccc(C(N)=O)c(F)c2)C(=O)O1 | MIC | UC12712 (vancomycin-resistant) | 8 µg/mL